# Measurements: publication PMC8062000, “High-throughput screening of the ReFRAME, Pandemic Box, and COVID Box drug repurposing libraries against SARS-CoV-2 nsp15 endoribonuclease to identify small-molecule inhibitors of viral activity” (PLoS ONE, 2021)
# Molecular target: SARS-CoV-2 nsp15 (Severe acute respiratory syndrome coronavirus 2, UniProt P0DTD1)
# Type: binding
smiles,measurement,value
COc1cccc2c1C(=O)c1c(O)c3c(c(O)c1C2=O)C[C@@](O)(C(=O)CO)C[C@@H]3O[C@H]1C[C@H](N)[C@H](O)[C@H](C)O1 [Doxorubicin],DSF Assay ΔTm,-0.5 °C
